# Data source: PubChem BioAssay AID504761 (Drosophila RNAi Screening Center, 2011)
# Test: 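Genome-wide fly cell screen for genes dengue virus requires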 (primary screen)
# System: D.Mel-2 cells from Drosophila
# Knock-down reagent: long dsRNA against Drosophila genes
# Challenge: infection with dengue virus type 2; dose and infection time not stated
# Read-out: 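Per well on two replicate plates, imaging gave the percent of cells positive for viral envelope protein, ranked by infection, and a nuclear count of cells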
# Reading the numbers: infection score: higher = more virus-infected cells; cell count: higher = more cells in the well
# Rule for the call: 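Very low infection ranking in both replicate wells (chance probability at most 0.065), then a retest showing infection dropped 1.5-fold or more at p below 0.05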
# Calls: active = confirmed: knock-down lowers infection; inactive = not picked or not confirmed
# In all, the deposit lists about 22,000 reagents; this is a random part of those that have a named target and a result. Over the whole deposit, 116 (0.52%) are marked active. 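Calls depend on retest data that are not deposited; infection was ranked per plate without normalising between plates; the unit of the infection score is not given.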 Raw values vary from plate to plate and are shown uncorrected. A number with no mark means an inactive call. Reagents against one gene are numbered here. A plus sign joins genes that one reagent is predicted to hit. The record does not give: the amount of reagent, the time to read-out.
predicted target,reagent no.,"infection score, replicate 1","infection score, replicate 2","cell count, replicate 1","cell count, replicate 2"
sel (seele),1,11,8.13,6283,6466
Sgs3 (Salivary gland secretion 3),1,4.04,3.73,5920,5578
Sgs3 (Salivary gland secretion 3),2,18.5,14.7,1457,4900
CG15739,1,1.6,7.47,6321,6717
CG15739,2,21.8,17.9,5283,6286
Vps11 (Vacuolar protein sorting 11),1,0.79,0.88,5923,5800
Vps11 (Vacuolar protein sorting 11),2,2.75,4.1,6027,6334
CG4880,1,7.06,28.4,6164,6013
Chd64,1,5.9,1.69,5750,5791
Chd64,2,,,471,411
CG17385,1,8.91,6.87,6895,6284
CG17385,2,7.38,33.2,6625,5375
CG13640,1,,,354,301
CG15534,1,5.43,7.78,1325,6428
CG15534,2,2.98,4.42,5977,6377
CG9130 + CG9133,1,11.3,4.31,6447,7037
CG9130 + CG9133,2,6.04,13.2,6948,6171
CG9130 + CG9133,3,7.85,7.17,2051,6414
CG9130 + CG9133,4,23.5,6.7,5696,6017

4 entries from above, limited to “cell count, replicate 2”.
CG15739 #1	6717
CG15739 #2	6286
Vps11 (Vacuolar protein sorting 11) #1	5800
Vps11 (Vacuolar protein sorting 11) #2	6334

Further reagents follow.
predicted target,reagent no.,"infection score, replicate 1","infection score, replicate 2","cell count, replicate 1","cell count, replicate 2"
Psf2 (Partner of Sld Five 2),1,2.31,2.83,6765,6544
Cpr64Ab (Cuticular protein 64Ab),1,4.57,0.89,6045,5947
Cpr64Ab (Cuticular protein 64Ab),2,3.79,2.83,6126,6370
CG10383,1,22.1,21.6,5902,5803
CG10383,2,,,311,317
CG16710,1,4.29,4.07,5738,3936
Or88a (Odorant receptor 88a),1,1.8,6.76,6117,6875
CG32409,1,4.04,10.2,6336,6376
CG32409,2,2.99,7.25,5821,6430
robl62A,1,3.51,3.71,5954,5951
CG30429,1,1.38,0.45,6246,6246
Cpr56F (Cuticular protein 56F),1,1.39,0.54,5892,6672
Cpr56F (Cuticular protein 56F),2,22.9,4.68,5036,6622
Ocho,1,2.79,4.09,6271,6140
Ocho,2,21.1,24.8,5441,5219
fat-spondin,1,8.3,6.51,5865,1735
CG15614,1,9.36,12.1,6476,6209
Polr2I (RNA polymerase II subunit I),1,35.8,16.8,4935,5423
Targ2 (Terminal ADP-ribose protein glycohydrolase 2),1,7.89,4.68,6451,7270
Drep4 (DNA fragmentation factor-related protein 4),1,6.3,5.66,6527,6591
